# Human monoclonal antibodies against the spike receptor-binding domain (heavy:light variable regions). IC50 against pseudoviruses bearing the spike of naturally observed variants; lower = stronger; >10 µg/ml means not reached at the top dose. No active / inactive call. The stated detection limit is 0.0005 µg/ml; values near or below 0.001 µg/ml lie at the floor of the assay.
# B1: BD-819 (protein)
# chain 1: QVQLQESGPGLVRPSQTLSLTCTVSGGSISSAGSHWTWIRQRPGKGLEWIGFIYYSGGTSYNPSLRSRLTISVDTSKNQFSLNLRSVTAADTAVYYCASSTSLTGWIDPWGQGTLVTVSS
# chain 2: SYVLTQPPSVSVAPGKTARITCGGNDIGSKNVHWYQQKPGQAPVLVVFDDSDRPSGIPERFSGSNSGNTATLTISRVEAGDEGDYYCQVWDSNIDQYWVFGGGTKVTVL
# B2: BD-807 (protein)
# chain 1: EVQLVESGGGLIQPGGSLRLSCAASGLIVSSNYMNWVRQAPGKGLEWVSTLYSGGSTFYTDSVKGRFTISRDNSKNTLYLQMNSLRAEDTAVYYCARDLGPFGMDVWGQGTSVTVSS
# chain 2: DIQLTQSPSFLSASVGDRVTITCRASQGISNYLAWYQQKPGEAPKLLIYGASTLQSGVPSRFSGSGSGTEFTLTISSLQPEDFAIYYCQQLNSYHPWTFGHGTKVEIK
# B3: BD-821 (protein)
# chain 1: ELQLVQSGAEVKKPGESLKISCKYSGNISPNFWIGWVRQMAGKGLEWMGIIYPDDSDSRYSPSFQGQVIISADKSITTALLHWSSLKVSDTAKYYCVYGSGSPSNWFHPWGQGTLVTVSS
# chain 2: EVVMTQSPATLSVSPGERATLSCRASQSVRYNLAWYQQKPGQAPRLLIYDASTRATGIPGRFSGSGSGTEFTLTISSLQSEDFAVYYCQQYDNWPPWTFGQGTKVEIK
# B4: BD55-1789 (protein)
# chain 1: EVRLVESGGGLVQPGGSLRLSCSASGFTFSSYAMHWVRQAPGKGLEYVSRITDNGVYTYYADSVKGRFNISRDNSKNTLYLQMSSLRPEDTALYYCVKEGRYDFRSGYFEIDPWGQGTLVTVPS
# chain 2: NFMLTQPHSVSESPGKTVTISCTRNGGSIASNYVHWYQQRPGSSPRTMIYEDNQRPSGVPDRFSGSIDISSNSASLTISGLKTEDEADYYCQSFDNNNHWVFGGGTKLTVL
# B5: BD55-1763 (protein)
# chain 1: QVQLVQSGAEVKKPGSSVKVSCKASGGTFSSDAISWVRQVPGQGPEWMARSIPLFGLANNAQKFQGRITITADKSANIAYTELSSLRSEDTAVYYCAREGITAAGPALDSWGQGTLVTVSS
# chain 2: DIQMTQSPSSLSASVGDRVTISCRASQSISTYLNWYQQKPGKAPKLLIYGASSLQSGVPSRFSGSGSGTDFTLTISSLQLEDFATYYCQQSYKTPPWTFGQGTKVEIK
# B6: BD55-1962 (protein)
# chain 1: QVQLVQSGAEVKKPGSSVKVSCTASGDSFSSYAITWVRQAPGQGLEWMGRIIPILGIANYAQKFQGRVTLTADKSAGTAYMELSSLRSDDTAVYYCASGYDFHFDYWGQGTLVTVYS
# chain 2: QSALTQPASVSGSPGQSITISCTGTSSDVGDYKYVSWYQQHAGKAPKLMIHDVSKRPSGVSSRFSGSKSGNTASLTISGLQAEDEADYYCSSYTSSSSWVFGGGTKLTVL
# B7: BD55-1779 (protein)
# chain 1: EVQLLESGGGLIQPGGSLRLSCAASGFTFSSSAMSWVRQAPGKGLEWVSVIYDGESSIYYADSVKGRFTISRDNSKNTLDLQMNSLRVEDTALYYCAKRGIFCSGGSCSSVPFDAWGQGTLVTVSS
# chain 2: DIVMTQTPLSLSVTPGQPASISCKSSQSLLHSDGRTYLYWYLQRPGQSPQLLMYEVSNRFSGVPPRFSGSGSGTDFTLKISRVEAEDVGVYYCMQSVHLFTFGPGTKVDIK
# B8: BD55-1575 (protein)
# chain 1: EGELVESGGGLIHPGGSLRLSCAASELVVSSNYMSWVRQAPGKGLEWVSVIYPGGSTFYADFVKGRFTISRDNSKNTLYLQMNSLRPDDTAMYYCAREALAKGTKVGATDFDYWGPGTRVTVSS
# chain 2: DIQMTQSPSSLSASVGDRVTITCRASESISTSLNWYQQQPGKAPQLLIYAASGLHTGVPSRFSGSGSGTDFTLTISSLQPEDFATYYCQQSYSTPPYTFGQGTKLEIK
# B9: BD55-1604 (protein)
# chain 1: QVQLVQSGAEVKRPGSSVKVSCKAPGGTFSRYPINWVRQAPGQGLEWMGGIIPFFGTENYAQRFQGRLTITADESTTTAYMELTSLTSEDTALYYCARVQMQIIVEPAPMRDWYFDLWGRGTLVTVSS
# chain 2: QSVLTQPPSVSAAPGQKVTISCSGSGSNIGNNYVSWYQQLPGAAPKLLIYDNDQRPSGIPDRFSGSKSGTSATLGITGLQTGDEADYYCGTWDSRLSAGIFGTGTKITVL
# B10: BD55-1723 (protein)
# chain 1: QVQLIQSGAEVKKPGSSVKVSCKAAGGTFNSYTISWVRQAPGHGLEWMGKIIPILGIPNQIEKVQGRVTITADKSTGTAYMELRSLRSEDTAVYYCVGDRYSGYGPFDYWGQGTLVTVSS
# chain 2: QSVLAQPPSVSGAPGQRVTISCTGSNSNIGAGYDVHWYQQFPGTAPKLLISGNINRPSGVPVRFSASKSDTSASLAITGLQAEDEADYYCQSYDSSLSGSLFGGGTKLTVL
# B11: BD55-1508 (protein)
# chain 1: EVQLVESGGGLVRPGGSLRLSCAASGFTFSSYWVSWVRQAPGKGLEWVANINHDGSEKYYLDSVKGRFTISRDNAKHSLYLQMNSLRAEDTAVYYCASHSQARPYFYFYMDVWGKGTTVTVSS
# chain 2: DIVMTQSPLSLPVTPGEPASISCRSSQSLLHSNGYNYLDWFLQKPGQSPQLLMYMGSNRASGVPDRFSGSGSGTDFTLKISRVEAEDVGVYYCMQGLQTPFTFGQGTKLEIK
# B12: BD-815 (protein)
# chain 1: EVQLVQSGPEVKKPGESLKISCKASGYSFISNWIGWVRQMPGKGLEWMGIIYPGDSDTRYSPSFQGQVTISADRSITTAYLQWSSLKASDTAIYYCARLGSSWYWVDYWGQGTLVTVSS
# chain 2: SSELTQDPAVSVALGQTVRITCQGDSLRSYHASWYQQKPGQAPILVIYDKNNRPSGIPDRFSGSGSGNTASLTITGAQAEDEADYYCNSRDSSGDHLVFGTGTKVTVL
# How the values were obtained:
# Assay in all cases: pseudovirus neutralization IC50; higher = weaker neutralization
# [1] = biological target: SARS-CoV-2 Omicron BA.1 spike pseudovirus
# Method: (§1)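 Single-round VSV luciferase pseudovirus mixed with antibody dilutions for 1 h and put on Huh-7 cells for about a day; IC50 from the dose curve.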
# [2] = biological target: SARS-CoV-2 Omicron BA.2 spike pseudovirus
# Method: as §1
# [3] = biological target: SARS-CoV-2 Omicron BA.2.75 spike pseudovirus
# Method: as §1
# [4] = biological target: SARS-CoV-2 Omicron BA.5 spike pseudovirus
# Method: as §1
# [5] = biological target: SARS-CoV-2 Omicron BQ.1.1 spike pseudovirus
# Method: as §1
# [6] = biological target: SARS-CoV-2 Omicron XBB spike pseudovirus
# Method: as §1
# [7] = biological target: SARS-CoV-2 early D614G spike pseudovirus
# Method: as §1
Binder,pseudovirus neutralization IC50 [1] [µg/mL],pseudovirus neutralization IC50 [2] [µg/mL],pseudovirus neutralization IC50 [3] [µg/mL],pseudovirus neutralization IC50 [4] [µg/mL],pseudovirus neutralization IC50 [5] [µg/mL],pseudovirus neutralization IC50 [6] [µg/mL],pseudovirus neutralization IC50 [7] [µg/mL]
B1,> 10,> 10,> 10,> 10,> 10,> 10,4.18
B2,> 10,> 10,> 10,> 10,> 10,> 10,0.013
B3,> 10,> 10,> 10,> 10,> 10,> 10,> 10
B4,> 10,> 10,> 10,> 10,> 10,> 10,0.249
B5,> 10,> 10,> 10,> 10,> 10,> 10,0.0299
B6,1.2,1.35,1.79,2.24,> 10,> 10,0.0269
B7,0.61,0.0728,0.372,> 10,> 10,> 10,0.00215
B8,0.181,0.263,0.418,0.0178,0.369,> 10,0.0126
B9,> 10,> 10,> 10,> 10,> 10,> 10,> 10
B10,0.382,0.159,0.172,> 10,> 10,1.17,0.145
B11,> 10,> 10,> 10,> 10,> 10,> 10,1.43
B12,0.838,2.09,3.49,2.73,1.95,2.06,0.26
